Laboratory results published in ChEMBL document CHEMBL2029225, “Synthesis of marine-derived 3-alkylpyridinium alkaloids with potent antiprotozoal activity” (ACS Med Chem Lett, 2011).

Legend:
[1] = test system: Trypanosoma brucei brucei; assay: Antitrypanosomal activity against bloodstream form of Trypanosoma brucei brucei 427 (BS221) after 72 hrs by alamar blue assay
[2] = test system: Trypanosoma brucei brucei; assay: Antitrypanosomal activity against TbAt1-deficient bloodstraem form of Trypanosoma brucei brucei 427 (BS221) after 72 hrs by alamar blue assay
[3] = test system: Trypanosoma brucei brucei; assay: Antitrypanosomal activity against TbAt1-deficient bloodstraem form Trypanosoma brucei brucei B48 after 72 hrs by alamar blue assay

O=[As]c1ccccc1 (stereo not drawn)
EC50 [1]: 0.66 nM
EC50 [2]: 0.45 nM
EC50 [3]: 1.3 nM
